How the values were obtained:
LacβPro2AA = assay: purified protein, by the assay type; conditions: other: apparent, 37° C., Tris-HCl pH 7.5, other substrate fixed at 1 mM
Galβ1-3GlcNAcβPro2AA = assay: purified protein, by the assay type; conditions: other: apparent, 37° C., Tris-HCl pH 7.5, other substrate fixed at 1 mM

PmST3Δ35-His6 (Pasteurella multocida subsp. multocida str. Pm70)
Km (LacβPro2AA): 4.9 ± 0.6 mM | Vmax (LacβPro2AA): 270 µM/min | kcat (LacβPro2AA): 0.75 s⁻¹ | kcat/Km (LacβPro2AA): 153 M⁻¹ s⁻¹ | Km (Galβ1-3GlcNAcβPro2AA): 14 ± 1 mM | Vmax (Galβ1-3GlcNAcβPro2AA): 340 µM/min | kcat (Galβ1-3GlcNAcβPro2AA): 0.25 s⁻¹ | kcat/Km (Galβ1-3GlcNAcβPro2AA): 16.7 M⁻¹ s⁻¹

Source: US9783838B2, “PmST3 enzyme for chemoenzymatic synthesis of alpha-2-3-sialosides” (The Regents of the University of California, priority 2012, dated 2017)
